Test results reported in US20250057158A1 (priority 2021, published 2025).

Tested on: Pectobacterium carotovorum subsp. carotovorum SCC1 (Pcc)
Conditions: Arabidopsis thaliana; for induced resistance against Pcc (disease severity, statistical significance vs water-treated control): 50 μl of 0.1% amino acid to roots, Pcc 7 days later, severity 24 h and 48 h after pathogen

| SMILES | induced resistance against Pcc (disease severity, statistical significance vs water-treated control) | persistence of disease resistance after Pcc pathogen treatment (0.1% amino acid, 48 hours after Pcc) |
| --- | --- | --- |
| CC[C@H](C)[C@H](N)C(=O)O [isoleucine] | induced the resistance against Pcc |  |
| CC(C)C[C@H](N)C(=O)O [leucine] | induced the resistance against Pcc |  |
| O=C(O)[C@@H]1CCCN1 [proline] | induced the resistance against Pcc |  |
| CC(C)[C@H](N)C(=O)O [valine] | induced the resistance against Pcc | persisted even after 48 hours |
